Tests used:
[1] = molecular target: sheep prion protein, P23907

B1: enzyme composition A used in the present invention (protein)
chain: AQTVPYGIPLIKADKVQAQGYKGANVKVGIIDTGIASSHTDLKVVGGASFVSGESYNTDGNGHGTHVAGTVAALDNTTGVLGVAPNVSLYAIKVLNSSGSGTYSAIVSGIEWATQNGLDVINMSLGGPSGSTALKQAVDKAYASGIVVVAAAGNSGSSGSQNTIGYPAKYDSVIAVGAVDSNKNRASFSSVGSELEVMAPGVSVYSTYPSNTYTSLNGTSMASPHVAGAAALILSKYPTLSASQVRNRLSSTATNLGDSFYYGKGLINVEAAAQ
How did the “digestion of pathogenic prion protein in 1% brain homogenate, Western blot” value [1] turn out when B1 was run?
Its value is “the pathogenic prion protein was almost completely digested at any concentration”.

B2: purified enzyme used in the present invention, from Bacillus licheniformis MSK-103 (FERM BP-08487) (protein)
chain: AQTVPYGIPLIKADKVQAQGYKGANVKVGIIDTGIASSHTDLKVVGGASFVSGESYNTDGNGHGTHVAGTVAALDNTTGVLGVAPNVSLYAIKVLNSSGSGTYSAIVSGIEWATQNGLDVINMSLGGPSGSTALKQAVDKAYASGIVVVAAAGNSGSSGSQNTIGYPAKYDSVIAVGAVDSNKNRASFSSVGSELEVMAPGVSVYSTYPSNTYTSLNGTSMASPHVAGAAALILSKYPTLSASQVRNRLSSTATNLGDSFYYGKGLINVEAAAQ
With B2 as the protein, how does the Digestion activity (U) (casein) read?
The Digestion activity (U) was 327000 U.

What about the Digestion activity (U) (collagen) of the same protein?
The Digestion activity (U) was 37000 U.

And the Digestion activity (U) (elastin)?
The Digestion activity (U) was 10500 U.

And the Digestion activity (U) (keratin)?
The Digestion activity (U) was 7190 U.

From patent US20060134092
